Experimental data taken from patent US20050227956A1, “Control of mold growth on wood” (priority 2004, published 2005).

Tested on: Alternaria alternata
Assay: Six-well plate screening test
Assay type: cell-based

iron(III) dimethyldithiocarbamate [Ferbam]
Minimum Inhibitory Concentrations (MIC): >100 mg/kg
